System: mice
Settings: mouse, in vivo

## 3,3′,4′,5-quadrahydroxystilbene-4′-O-β-D-glucopyranoside [Compound E1]
  Toxicity (in words): very low

— patent US7384920B2, “Use of stilbene compounds in the manufacture of medicament for the prevention and treatment of diabetes or retrovirus-associated diseases” (priority 2001, dated 2008)
